The values below come from patent US10344265B2, “Sustained polypeptide expression from synthetic, modified RNAs and uses thereof” (Children's Medical Center Corporation, priority 2010, dated 2019).

This data set concerns keratinocytes. Briefly: Viability and GFP expression after RNA transfection (flow cytometry). Conditions: media supplementation with B18R. (In general: Flow cytometry measures light scatter and fluorescence of single cells or particles in a stream.)

For the substance B18R, the “cellular viability following RNA transfection” value is on record as “further increased”.
